# Mutational interference map of HIV-1 RNA dimerization

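Randomly mutated transcripts starting with one, two or three G (1G, 2G, 3G), capped or uncapped, were folded for 30 min at 37 °C. High salt was 300 mM KCl and 5 mM MgCl2, low salt 40 mM KCl and 0.1 mM MgCl2; monomer and dimer were parted on a native gel. Kdimer compares mutation frequencies in monomer and dimer, corrected for sequencing errors.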

RNA: 5' end of the HIV-1 NL4-3 genome, made in vitro. Positions 1-437 read:
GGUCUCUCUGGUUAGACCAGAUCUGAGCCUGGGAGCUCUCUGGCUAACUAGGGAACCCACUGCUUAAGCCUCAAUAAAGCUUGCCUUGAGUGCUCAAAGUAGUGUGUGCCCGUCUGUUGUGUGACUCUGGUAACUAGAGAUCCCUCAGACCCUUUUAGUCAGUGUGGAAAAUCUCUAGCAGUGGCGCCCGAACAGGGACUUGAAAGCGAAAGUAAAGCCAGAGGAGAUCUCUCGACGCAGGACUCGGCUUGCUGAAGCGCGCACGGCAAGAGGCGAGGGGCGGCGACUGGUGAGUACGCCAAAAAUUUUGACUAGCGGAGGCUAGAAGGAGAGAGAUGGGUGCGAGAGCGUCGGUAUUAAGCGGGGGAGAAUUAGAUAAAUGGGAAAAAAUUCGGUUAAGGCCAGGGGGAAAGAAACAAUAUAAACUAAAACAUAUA

Scale: median log2 Kdimer over the changes at a position; positive = changes inhibit dimerization, negative = changes enhance it.
One numbering serves 1G, 2G and 3G.
A position is written with its base.

| position | domain | 2G capped high-salt | 2G capped low-salt | 2G uncapped high-salt | 2G uncapped low-salt |
|---|---|---|---|---|---|
| G400 | none | -0.01 | -0.05 | -0.03 | -0.03 |
| G401 | none | -0.22 | -0.25 | 0.08 | 0.00 |
| C402 | none | -0.01 | -0.20 | -0.12 | -0.25 |
| C403 | none | -0.07 | -0.42 | 0.04 | -0.29 |
| A404 | none | 0.01 | -0.22 | 0.13 | -0.04 |
| G405 | none | -0.21 | -0.25 | -0.06 | -0.05 |
| G406 | none | -0.22 | -0.20 | -0.11 | -0.04 |
| G407 | none | -0.03 | -0.06 | 0.07 | -0.02 |
| G408 | none | -0.05 | 0.01 | -0.06 | -0.01 |
| G409 | none | 0.05 | -0.05 | -0.02 | 0.02 |
| A410 | none | 0.03 | -0.05 | -0.02 | 0.03 |

Data from the supplement of Ye et al. 2022, doi:10.1038/s41594-022-00746-2.